pIC50: −log10 of the molar value.
What was measured:
HIV protease (HIV-1) = HIV protease (HIV-1) (Human immunodeficiency virus type 1 group M subtype B, UniProt P04585); experiment: HIV-specific protease enzyme test (synthetic peptide cleavage, RP-HPLC); details: read-out: IC50 (RP-HPLC) HIV-1; purified HIV protease, synthetic gag cleavage-site peptide, 50% inhibition of protease activity
Procedure: This is verified using an HIV-specific protease enzyme test.
The results of the examples listed below were obtained using the HIV test system described in the following literature reference [cf. Hansen, J., Billich, S., Schulze, T., Sukrow, S. and M olling, K. (1988), EMBO Journal, Vol, 7, No. 6, pp. 1785-1791]: purified HIV protease was incubated with synthetic peptide which imitates a cleavage site in the gag precursor protein and represents an in-vivo cleavage site for HIV protease. The cleavage products resulting from the synthetic peptide were analysed by reverse phase high performance liquid chromatography (RP-HPLC). The IC50 values which are given relate to that concentration of substance which brings about 50% inhibition of the protease activity under the above-listed test conditions.

HCMV (Davis) = experiment: Anti-HCMV screening test: inhibition of the cytopathogenic effect in HELF cell cultures; assay type: cell-based, human cytomegalovirus; details: for pIC50: read-out: IC50 (HCMV), HCMV (Davis)-infected HELF cells, 6 days, concentration causing 50% inhibition of the CPE; for SI: selectivity index, defined by footnote 3 (drawing 26), HELF CIC50 versus HCMV IC50

With `Cc1ccc(S(=O)(=O)N=C(N)NCCC[C@H](NC(=O)OCc2ccncc2)C(=O)N[C@H](C(=O)N[C@H](CO)Cc2ccccc2)C(C)(C)C)cc1` the pIC50 (HIV protease (HIV-1)) was 4.89.

`Cc1ccc(S(=O)(=O)N=C(N)NCCC[C@H](NC(=O)OCc2ccc([N+](=O)[O-])cc2)C(=O)N[C@H](C(=O)N[C@H](CO)Cc2ccccc2)C(C)(C)C)cc1` showed a pIC50 (HIV protease (HIV-1)) of 5.59.

In the case of `Cc1ccc(S(=O)(=O)N=C(N)NCCC[C@H](NC(=O)Cc2ccccn2)C(=O)N[C@H](C(=O)NC(C=O)Cc2ccccc2)C(C)(C)C)cc1` (stereo partly drawn), the pIC50 (HIV protease (HIV-1)) was 6.68, the pIC50 (HCMV (Davis)) was 6.01 and the SI (HCMV (Davis)) was 191.

For `Cc1ccc(S(=O)(=O)N=C(N)NCCC[C@H](NC(=O)c2c(F)cccc2F)C(=O)N[C@H](C(=O)NC(C=O)Cc2ccccc2)C(C)(C)C)cc1` (stereo partly drawn), the pIC50 (HIV protease (HIV-1)) was 4.72.

For `Cc1ccc(S(=O)(=O)N=C(N)NCCC[C@H](NC(=O)OC(C)(C)C)C(=O)N[C@H](C(=O)NC(C=O)Cc2ccccc2)C(C)(C)C)cc1` (stereo partly drawn), the pIC50 (HIV protease (HIV-1)) was 5.72, the pIC50 (HCMV (Davis)) was 6.90 and the SI (HCMV (Davis)) was 125.
